Measured values from several laboratories, pooled; numbers as filed in NIAID ChemDB.

Shared fields: growth or infection tests; organism: HIV-1; endpoint: inhibition

Percent inhibition refers to the dose given; in toxicity tests it is the harm to the cells. a–b is a range or a potency band. Conditions beyond the fields shown may differ between rows. An empty or dashed field is not shown.

C[C@H]1CC[C@@]2(OC1)O[C@H]1C[C@H]3[C@@H]4CC=C5C[C@@H](O[C@@H]6O[C@H](CO)[C@H](O[C@@H]7O[C@H](CO)[C@@H](O)[C@H](O)[C@H]7O[C@@H]7O[C@H](CO)[C@@H](O)[C@H](O)[C@H]7O)[C@H](O)[C@H]6O)CC[C@]5(C)[C@H]4CC[C@]3(C)[C@H]1[C@@H]2C ; conditions: pseudotyped ; tested at: 30 µM ; read by: luciferase / single cycle ; cells: SupT1 ; value: 98.47%
S=C(NCCc1ccccc1)N1CCCc2ccccc21 ; tested at: 0.1 µg/mL ; read by: cytopathic effect / XTT ; cells: MT-4 ; value: 25%
CC(C)[C@H](NC(=O)[C@H](Cc1ccccc1)C[C@H](O)[C@H](Cc1ccccc1)NC(=O)OC(C)(C)C)C(=O)N[C@@H](Cc1ccccc1)C(=O)N1CCOCC1 ; tested at: 0.1 µM ; read by: RT activity ; strain: LAV ; cells: MT-2 ; value: 90%
CC1(C)OC(=O)C2(C(=O)O1)[C@@H](c1ccccc1)CC(=O)C[C@H]2[C@H]1COC(C)(C)O1 ; tested at: 0.0001 µM ; read by: MTT ; strain: NL4-3 ; cells: SupT1 ; value: >40%
Cc1cccc(C)c1OCC(=O)N[C@@H](Cc1ccccc1)[C@H](O)[C@@H](O)[C@@H]1CCCN1C(=O)COc1c(C)cccc1C ; tested at: 0.0001 µM ; read by: MTT ; strain: IIIB ; cells: MT-2 ; value: 22%
C[C@@H](CC[C@@]1(O)O[C@H]2C[C@H]3[C@@H]4CC=C5C[C@@H](O[C@@H]6O[C@H](CO)[C@H](O[C@@H]7O[C@H](CO)[C@@H](O)[C@H](O[C@@H]8OC[C@@H](O)C(O)[C@H]8O)[C@H]7O[C@@H]7O[C@H](CO)[C@@H](O)[C@H](O)[C@H]7O)[C@H](O)[C@H]6O)CC[C@]5(C)[C@H]4CC(O)[C@]3(C)[C@H]2[C@@H]1C)CO[C@@H]1O[C@H](CO)[C@@H](O)[C@H](O)[C@H]1O ; conditions: pseudotyped ; tested at: 30 µM ; read by: luciferase / single cycle ; cells: SupT1 ; value: 46.2%
CC(C)c1cc(=O)oc2c(C3C=NNC(c4cccs4)=N3)c(O)c3c(c12)OC(C)(C)C=C3 ; tested at: 50 µM ; read by: RT activity / visual reading ; strain: 899A ; cells: MT-4 ; value: 43%
CCCCCCCCCCCCCCCCOP(=O)(OC[C@H]1OC(O)[C@@H](O)[C@@H](O)[C@@H]1O)OC[C@H]1O[C@@H](n2cc(C)c(=O)[nH]c2=O)C[C@@H]1N=[N+]=[N-] ; conditions: 26 d ; tested at: 0.2 µM ; read by: RT activity ; strain: LAV-Bru ; cells: CEM ; value: 0%
Cc1cn(CC(=O)N[C@@H](Cc2ccccc2)C(=O)N(C)c2ccc(F)cc2)c(=O)[nH]c1=O ; tested at: 0.1 µM ; read by: GFP ; strain: NL4-3 ; cells: TZM-gfp ; value: 6.383%
CCCCCCCCCCCCCCCCOP(=O)(OCCO[C@@H]1O[C@H](CO)[C@@H](O)[C@H](O)[C@@H]1O)OC[C@H]1O[C@@H](n2cc(C)c(=O)[nH]c2=O)C[C@@H]1N=[N+]=[N-] ; conditions: 7 d ; tested at: 0.2 µM ; read by: RT activity ; strain: LAV-Bru ; cells: U-937 ; value: 0%
CC(C)c1cc(=O)oc2c(C3C=NNC(Sc4ccccc4)=N3)c(O)c3c(c12)OC(C)(C)C=C3 ; tested at: 50 µM ; read by: RT activity / visual reading ; strain: 899A ; cells: MT-4 ; value: 23%
Cc1cn([C@H]2C[C@H](N=[N+]=[N-])[C@@H](COP(=O)(O)OCCO[C@H]3O[C@H](CO)[C@@H](O)[C@H](O)[C@@H]3O)O2)c(=O)[nH]c1=O ; conditions: 26 d ; tested at: 0.2 µM ; read by: RT activity ; strain: LAV-Bru ; cells: CEM ; value: 0%
COc1c(C(=O)NCc2ccc(C)cc2)ccc2c1C(=O)N(C)C(c1cccs1)N2 ; tested at: 10 µM ; read by: MTT ; cells: TZM-bl ; value: 17.5%
C[C@H]1CC[C@@]2(OC1)O[C@H]1C[C@H]3[C@@H]4CC=C5C[C@@H](O[C@@H]6O[C@H](CO)[C@H](O[C@@H]7O[C@H](CO)[C@@H](O)[C@H](O[C@@H]8OC[C@@H](O)C(O)[C@H]8O)[C@H]7O[C@@H]7O[C@H](CO)[C@@H](O)[C@H](O)[C@H]7O)[C@H](O)[C@H]6O)CC[C@]5(C)[C@H]4C[C@@H](O)[C@]3(C)[C@H]1[C@@H]2C ; conditions: pseudotyped ; tested at: 30 µM ; read by: luciferase / single cycle ; cells: SupT1 ; value: 95.14%
Cc1cn(CC(=O)N[C@@H](Cc2ccccc2)C(=O)N(C)c2ccccc2)c(=O)[nH]c1=O ; tested at: 0.1 µM ; read by: GFP ; strain: NL4-3 ; cells: TZM-gfp ; value: 36.8%
O=C(NCCc1ccccc1)Nc1nc2ccccc2s1 ; tested at: 0.1 µg/mL ; read by: cytopathic effect / XTT ; cells: MT-4 ; value: 0%
CC(C)[C@H](NC(=O)[C@H](CO)NC(=O)[C@@H](N)CSSCC(=O)O)C(=O)N[C@H](C(=O)N[C@@H](CSSCC(=O)O)C(=O)NCC(=O)O)[C@@H](C)O ; tested at: 1.8 µM ; read by: p24 ; strain: p13 ; cells: PBMC(PHA STIM.) + PBMC ; value: 80%
C[C@H]1CC[C@@]2(OC1)O[C@H]1C[C@H]3[C@@H]4CC=C5C[C@@H](O[C@@H]6O[C@H](CO)[C@H](O[C@@H]7O[C@H](CO)[C@@H](O)[C@H](O[C@@H]8OC[C@@H](O)C(O)[C@H]8O)[C@H]7O[C@@H]7O[C@H](CO)[C@@H](O)[C@H](O)[C@H]7O)[C@H](O)[C@H]6O)CC[C@]5(C)[C@H]4CC(=O)[C@]3(C)[C@H]1[C@@H]2C ; conditions: pseudotyped ; tested at: 30 µM ; read by: luciferase / single cycle ; cells: SupT1 ; value: 99.95%
COc1c(C(=O)NCc2ccc(C)cc2)ccc2c1C(=O)N(C)C(c1ccc([N+](=O)[O-])cc1)N2 ; tested at: 10 µM ; read by: MTT ; cells: TZM-bl ; value: 64.9%
N=C1Sc2ccccc2C2=NCCCN12 ; tested at: 1.92 µM ; read by: β-galactosidase ; strain: 92HT599 ; cells: PBMC ; value: 90%
CC(=O)[C@H]1[C@@H](OC(=O)CC[C@H](C)CO[C@@H]2O[C@H](CO)[C@@H](O)[C@H](O)[C@H]2O)C[C@H]2[C@@H]3CC=C4C[C@@H](O[C@@H]5O[C@H](CO)[C@H](O[C@@H]6O[C@H](CO)[C@@H](O)[C@H](O[C@@H]7OC[C@@H](O)C(O)[C@H]7O)[C@H]6O[C@@H]6O[C@H](CO)[C@@H](O)[C@H](O)[C@H]6O)[C@H](O)[C@H]5O)CC[C@]4(C)[C@H]3CC(=O)[C@@]21C ; conditions: pseudotyped ; tested at: 30 µM ; read by: luciferase / single cycle ; cells: SupT1 ; value: 29.42%
CC[C@H](CO)Nc1nc(NCc2ccc(-c3ccccc3)cc2)n2ncc(C(C)C)c2n1 ; tested at: 0.05 µM ; read by: trypan blue ; cells: ACH2 ; value: 1–5%
CC1(C)[C@@H](O[C@H]2O[C@H](C(=O)O)[C@@H](O)[C@H](O)[C@H]2O[C@@H]2O[C@H](C(=O)O)[C@@H](O)[C@H](O)[C@H]2O)CC[C@]2(C)[C@H]3C(=O)C=C4[C@@H]5C[C@@](C)(C(=O)O)CC[C@]5(C)CC[C@@]4(C)[C@]3(C)CC[C@@H]12 ; tested at: 6 µM ; read by: antigen ; strain: IIIB ; cells: MT-4 ; value: 3.9%
O=C1[C@@H](Cc2ccccc2)NC(=S)N1Cc1ccccc1 ; tested at: 1 µg/mL ; read by: cytopathic effect / XTT ; cells: MT-4 ; value: 0–4%
CN(C(=O)[C@H](Cc1ccccc1)NC(=O)CNC(=O)c1ccccc1)c1cccc(C(F)(F)F)c1 ; tested at: 0.1 µM ; read by: GFP ; strain: NL4-3 ; cells: TZM-gfp ; value: 21.35%
N=C1Sc2ccccc2C2=NCCCN12 ; tested at: 1.62 µM ; read by: MTS ; strain: 96USNG31 ; cells: PBMC ; value: 90%
CN(C(=O)[C@H](Cc1ccccc1)NC(=O)CNC(=O)c1ccccc1)c1ccccc1 ; tested at: 0.1 µM ; read by: GFP ; strain: NL4-3 ; cells: TZM-gfp ; value: 15.63%
CC(C)c1cc(=O)oc2c(CN3CCCC3)c(O)c3c(c12)OC(C)(C)C=C3 ; tested at: 50 µM ; read by: RT activity / visual reading ; strain: 899A ; cells: MT-4 ; value: 14%
CN(C(=O)[C@H](Cc1ccccc1)NC(=O)CNC(=O)c1ccccc1)c1cccc(Cl)c1 ; tested at: 0.1 µM ; read by: GFP ; strain: NL4-3 ; cells: TZM-gfp ; value: 42.11%
CC(=O)N1C(=O)[C@@H](Cc2ccccc2)NC1=S ; tested at: 1 µg/mL ; read by: cytopathic effect / XTT ; cells: MT-4 ; value: 5%
c1cc(CNCCCNC2CCCCC2)cc(CNc2nc(N3CCNCC3)nc3nc[nH]c23)c1 ; tested at: 10 µM ; read by: luciferase ; strain: IIIB ; cells: TZM-bl ; value: 2%
CO[C@@]1(C)/C(=C/C[C@H](C)CO[C@@H]2O[C@H](CO)[C@@H](O)[C@H](O)[C@H]2O)O[C@H]2C[C@H]3[C@@H]4CC=C5C[C@@H](O[C@@H]6O[C@H](CO)[C@H](O[C@@H]7O[C@H](CO)[C@@H](O)[C@H](O[C@@H]8OC[C@@H](O)C(O)[C@H]8O)[C@H]7O[C@@H]7O[C@H](CO)[C@@H](O)[C@H](O)[C@H]7O)[C@H](O)[C@H]6O)CC[C@]5(C)[C@H]4CC[C@]3(C)[C@H]21 ; conditions: pseudotyped ; tested at: 30 µM ; read by: luciferase / single cycle ; cells: SupT1 ; value: 48.63%
Cc1ccc(-c2ccc3c(c2)C=C(C(=O)Nc2ccc(C[N+](C)(C)C4CCOCC4)cc2)CCC3)cc1 ; tested at: 1 µM ; read by: p24 ; strain: COT6 CLADE C ; cells: PBMC ; value: 32.9%
Nc1ccn([C@H]2C=C[C@@H](CO)O2)c(=O)n1 ; tested at: 0.1 µM ; read by: RT activity ; strain: LAV ; cells: MT-2 ; value: 66%
CC(C)[C@H](NC(=O)[C@H](CO)NC(=O)[C@H](CS)NC(=O)CCC(=O)NCCCOCCOCCCN)C(=O)N[C@H](C(=O)N[C@@H](CS)C(=O)NCC(=O)O)[C@@H](C)O ; tested at: 0.132 µM ; read by: p24 ; strain: IIIB ; cells: PBMC(PHA STIM.) + PBMC ; value: 100%
Cc1cn(CC(=O)N[C@@H](Cc2ccccc2)C(=O)N(C)c2cccc(Cl)c2)c(=O)[nH]c1=O ; tested at: 0.1 µM ; read by: GFP ; strain: NL4-3 ; cells: TZM-gfp ; value: 38.95%
CC(=O)N1C(=O)[C@@H](Cc2ccc(Cl)cc2)NC1=S ; tested at: 10 µg/mL ; read by: cytopathic effect / XTT ; cells: MT-4 ; value: 3%
COc1c(C(=O)NCc2ccc(C)cc2)ccc2c1C(=O)N(C)C(c1ccc(F)cc1)N2 ; tested at: 10 µM ; read by: MTT ; cells: TZM-bl ; value: 31%
O=C1NC(=S)N[C@@H]1Cc1ccccc1 ; tested at: 10 µg/mL ; read by: cytopathic effect / XTT ; cells: MT-4 ; value: 28%
C=C(C)[C@@H]1CC[C@]2(C(=O)NCCCCCCCC(=O)N[C@@H](CC(C)C)[C@@H](O)CC(=O)O)CC[C@]3(C)[C@H](CC[C@@H]4[C@@]5(C)CC[C@H](O)C(C)(C)[C@@H]5CC[C@]43C)[C@@H]12 ; tested at: 10 µM ; read by: syncytia ; strain: LN7 (H91L) ; cells: HeLa P4 + HeLa ; value: >99%
CN(C(=O)[C@H](Cc1ccccc1)NC(=O)CNC(=O)c1ccccc1)c1ccc(F)cc1 ; tested at: 0.1 µM ; read by: GFP ; strain: NL4-3 ; cells: TZM-gfp ; value: 12.37%

The last 5 rows once more:

structure	conditions	tested at	read by	strain	cells	value
CC(=O)N1C(=O)[C@@H](Cc2ccc(Cl)cc2)NC1=S		10 µg/mL	cytopathic effect / XTT		MT-4	3%
COc1c(C(=O)NCc2ccc(C)cc2)ccc2c1C(=O)N(C)C(c1ccc(F)cc1)N2		10 µM	MTT		TZM-bl	31%
O=C1NC(=S)N[C@@H]1Cc1ccccc1		10 µg/mL	cytopathic effect / XTT		MT-4	28%
C=C(C)[C@@H]1CC[C@]2(C(=O)NCCCCCCCC(=O)N[C@@H](CC(C)C)[C@@H](O)CC(=O)O)CC[C@]3(C)[C@H](CC[C@@H]4[C@@]5(C)CC[C@H](O)C(C)(C)[C@@H]5CC[C@]43C)[C@@H]12		10 µM	syncytia	LN7 (H91L)	HeLa P4 + HeLa	>99%
CN(C(=O)[C@H](Cc1ccccc1)NC(=O)CNC(=O)c1ccccc1)c1ccc(F)cc1		0.1 µM	GFP	NL4-3	TZM-gfp	12.37%